Pooled drug test results. Numbers come from NIAID ChemDB, via PubChem.

Common to all: growth or infection tests; species: Candida albicans

Two numbers with a dash give a range or band.

structure | read by | strain or isolate | read-out | value
CCCCCCC(=O)O[C@H]1Cc2c(O)cc(O)cc2O[C@@H]1c1ccc(O)c(O)c1 |  | ATCC 10231 | MIC | 128 µg/mL
CC1=C(Nc2ccc(Br)cc2)C(=O)c2sc(C)nc2C1=O |  | ATCC20231 | MIC | 50 µg/mL
CNC1C(C)OC(O[C@H]2c3cc(C)c(C(=O)N[C@H](C)C(N)=O)c(O)c3-c3c(cc4c(c3O)C(=O)c3cc(OC)cc(O)c3C4=O)[C@@H]2O)C(O)C1OC1OCC(O)C(O)C1O |  | A9540 | MIC | 12.5 µg/mL
CC(C)(C)COC(=O)N[C@H](Cc1cn(CCc2ccccc2)nn1)C(=O)OCc1cn(CCc2ccccc2)nn1 |  | MTCC 183 | MIC | 20.2 µM
Cc1ccc(Oc2ncc(C)c(Oc3ccc(C)cc3)n2)cc1 |  |  | EC50 | 18 µg/mL
Cc1cccc(Cn2cc(COC(=O)[C@@H](Cc3cn(Cc4cccc(C)c4)nn3)NC(=O)OCC(C)(C)C)nn2)c1 |  | MTCC 183 | MIC | 20.2 µM
Cc1cnc(Nc2ccc(Cl)cc2)nc1Nc1ccc(Cl)cc1 |  |  | EC50 | 0.92 µg/mL
C[C@H]1[C@H](O)[C@@H](C)/C=C/C=C/C=C/C=C/C=C/C=C/C=C/[C@H](O[C@@H]2O[C@H](C)[C@@H](O)[C@H](N)[C@@H]2O)C[C@@H]2O[C@](O)(C[C@@H](O)C[C@@H](O)CC[C@H](O)[C@@H](O)C[C@@H](O)CC(=O)O[C@H]1C)C[C@H](O)[C@H]2C(=O)O |  |  | MIC | 5 µg/mL
O=C(N[C@H](Cc1cn(CCc2ccccc2)nn1)C(=O)OCc1cn(CCc2ccccc2)nn1)OCc1ccccc1 |  | MTCC 183 | MIC | 9.8 µM
C[C@@]1(C=O)CC[C@H](CO)[C@@]1(C)C(=O)O |  | 2005E | EC50 | 45 µM
CC(C)=CCCC(C)CCO | broth dilution |  | MIC | 1066–2132 µg/mL
CNOC(=O)[C@@H](C)NC(=O)c1c(C)cc2c(c1O)-c1c(cc3c(c1O)C(=O)c1cc(OC)cc(O)c1C3=O)[C@H](O)[C@H]2OC1OC(C)C(NC)C(OC2OCC(O)C(O)C2O)C1O |  | A9540 | MIC | 12.5 µg/mL
Fc1ccc(CN(CCn2cncn2)CCn2cncn2)c(F)c1 | visual reading / absorbance |  | MIC | 64 µg/mL
O=C(N[C@H](Cc1cn(Cc2ccccc2)nn1)C(=O)OCc1cn(Cc2ccccc2)nn1)OCc1ccccc1 |  | MTCC 183 | MIC | 10.3 µM
C=CC1=CC[C@H]2[C@@H](C[C@H]3OC(=O)[C@@]4(C)[C@@H](O)CC[C@@]2(C)[C@@]34O)[C@H]1C |  |  | MIC | 8 µg/mL
C[C@@]1(C=O)CC[C@H](COC2CCCCO2)[C@@]1(C)C(=O)O |  | 2005E | MIC | 56 µM
N=C(N)c1ccc(OCCCCCCOc2ccc(C(=N)N)cc2)cc1 | agar diffusion / agar | Ca4 | MIC | 22 µg/mL
O=C1C=C(Nc2ccc(C(F)(F)F)cc2)C(=O)c2scnc21 |  | ATCC20231 | MIC | 1.25 µg/mL
CN1CCN(c2ccc3nc(-c4ccc5nc(-c6ccc(O)cc6)[nH]c5c4)[nH]c3c2)CC1 |  | RO102 | MIC50 | 32 µM
NC(=NC1CCCC1)c1ccc(-c2ccc(-c3ccc(C(N)=NC4CCCC4)cc3)o2)cc1 |  | Isolate 1866 | MFC | 25 µg/mL
CC(C)=CCC1=CC(=O)C=C(C)C1=O |  | ATCC 10231 | MIC | 130 µg/mL
C[C@@H](n1ncn(-c2ccc(OCC(F)(F)C(F)F)cc2)c1=O)[C@](O)(Cn1cncn1)c1ccc(F)cc1F |  | TIMM1756 | MIC | 0.016 µg/mL
O[C@](Cn1cncn1)(Cn1cnc(/C=C/c2ccc(OCC(F)(F)C(F)F)cc2)n1)c1ccc(F)cc1F |  | 50 strains (fluconazole-susceptible) | MIC50 | ≤0.0078 µg/mL
O=c1[nH]c2cc(C(F)(F)F)ccc2nc1C(F)(F)F |  | ATCC 90029 | MIC | 8 µg/mL
C[C@@H](n1ccn(-c2ccc(OC(F)(F)F)cc2)c1=O)C(O)(Cn1cncn1)c1ccc(F)cc1F |  | TIMM1756 | MIC | <0.016 µg/mL
Cc1ccccc1Cn1cc(COC(=O)[C@@H](Cc2cn(Cc3ccccc3C)nn2)NC(=O)OCC(C)(C)C)nn1 |  | MTCC 183 | MIC | 10.1 µM
CNC1C(C)OC(O[C@H]2c3cc(C)c(C(=O)N[C@H](C)C(=O)N[C@@H](C)C(=O)O)c(O)c3-c3c(cc4c(c3O)C(=O)c3cc(OC)cc(O)c3C4=O)[C@@H]2O)C(O)C1OC1OCC(O)C(O)C1O |  | A9540 | MIC | >100 µg/mL
Cc1cnc(Oc2ccc(Cl)cc2)nc1Oc1ccc(Cl)cc1 |  |  | EC50 | 16.8 µg/mL
C[C@@H](N1CCN(c2ccc(F)cc2)C1=O)C(O)(Cn1cncn1)c1ccc(F)cc1F |  | TIMM1756 | MIC | <0.016 µg/mL
O=c1[nH]c2cc([N+](=O)[O-])ccc2nc1CBr |  | ATCC 90029 | MIC | 8–62.5 µg/mL
COc1ccc(Oc2ccnc(Oc3ccc(OC)cc3)n2)cc1 |  |  | EC50 | 16.4 µg/mL
CC[C@@]1(O)C[C@H](O[C@H]2C[C@H](N(C)C)[C@H](O[C@H]3C[C@H](O)[C@H](O[C@H]4CCC(=O)[C@H](C)O4)[C@H](C)O3)[C@H](C)O2)c2c(cc3c(c2O)C(=O)c2c(O)cccc2C3=O)[C@H]1C(=O)OC |  |  | MIC | 0.2 µg/mL
C[C@@H](N1CCN(c2ccc(OCC(F)(F)C(F)F)cc2)C1=O)C(O)(Cn1cncn1)c1ccc(F)cc1F |  | TA | MIC | <0.016 µg/mL
O=[N+]([O-])c1ccc(Oc2ccnc(Oc3ccc([N+](=O)[O-])cc3)n2)cc1 |  |  | EC50 | 14.16 µg/mL
Cc1nc2c(s1)C(=O)C(Sc1cccc(F)c1)=C(O)C2=O |  | ATCC20231 | MIC | >100 µg/mL
C[C@@]1(C=O)CC[C@H](COC(=O)c2ccccc2)[C@@]1(C)C(=O)O |  | 2005E | MIC | 102 µM
CCCCCCCCC(=O)O[C@@H]1Cc2c(O)cc(O)cc2O[C@@H]1c1ccc(O)c(O)c1 |  | ATCC 10231 | MIC | 16 µg/mL
O=c1[nH]c2ccc(C(F)(F)F)cc2nc1C(F)(F)F |  | ATCC 90029 | MIC | 8 µg/mL
CC1=C(Sc2ccc(F)cc2F)C(=O)c2sc(C)nc2C1=O |  | ATCC20231 | MIC | 50 µg/mL
CN1C(c2ccccc2)C/C(=N\OCc2ccccc2)C(Cl)C1c1ccccc1 |  |  | MIC | 100 µg/mL
CNC1C(C)OC(O[C@H]2c3cc(C)c(C(=O)N[C@H](C)C(=O)OC)c(O)c3-c3c(cc4c(c3O)C(=O)c3cc(OC)cc(O)c3C4=O)[C@@H]2O)C(O)C1OC1OCC(O)C(O)C1O |  | A9540 | MIC | >100 µg/mL

The first 5 rows once more:

structure	read by	strain or isolate	read-out	value
CCCCCCC(=O)O[C@H]1Cc2c(O)cc(O)cc2O[C@@H]1c1ccc(O)c(O)c1		ATCC 10231	MIC	128 µg/mL
CC1=C(Nc2ccc(Br)cc2)C(=O)c2sc(C)nc2C1=O		ATCC20231	MIC	50 µg/mL
CNC1C(C)OC(O[C@H]2c3cc(C)c(C(=O)N[C@H](C)C(N)=O)c(O)c3-c3c(cc4c(c3O)C(=O)c3cc(OC)cc(O)c3C4=O)[C@@H]2O)C(O)C1OC1OCC(O)C(O)C1O		A9540	MIC	12.5 µg/mL
CC(C)(C)COC(=O)N[C@H](Cc1cn(CCc2ccccc2)nn1)C(=O)OCc1cn(CCc2ccccc2)nn1		MTCC 183	MIC	20.2 µM
Cc1ccc(Oc2ncc(C)c(Oc3ccc(C)cc3)n2)cc1			EC50	18 µg/mL

Rows are shuffled and stem from different studies. ECn is the concentration giving n% inhibition of infection, replication or growth. MIC50, MIC90 and the like: level of inhibition, or share of isolates inhibited. An empty or dashed field is not shown.